Results of unrelated studies side by side (data: NIAID ChemDB).

Shared fields: growth or infection tests

ECn: concentration that inhibits the pathogen or its effect by n%.

smiles	strain or isolate	organism	dose	method	cell line	endpoint	value
Cn1cnc2c(ncn2[C@@H]2O[C@H](CO)[C@@H](O)[C@H]2O)c1=N	TYPE A0/PR8/34	Influenza virus	-	cytopathic effect	MDCK	EC50	100 µg/mL
Nc1ccnc(N)n1	B/GIFU/2/73	Influenza B virus	-	plaque count	MDCK	EC50	>910 µM
N=C1c2ncn([C@@H]3O[C@H](CO)[C@@H](O)[C@H]3O)c2NCN1OCc1ccccc1	TYPE A0/PR8/34	Influenza virus	-	cytopathic effect	MDCK	EC50	320 µg/mL
Nc1nc(Cl)cc(NCC2(CO)CC(OCc3ccccc3)C2)n1	B/GIFU/2/73	Influenza B virus	-	plaque count	MDCK	EC50	7.2–16 µM
N=C1c2ncn([C@@H]3O[C@H](CO)[C@@H](O)[C@H]3O)c2NCN1OCc1ccc(F)cc1	TYPE A0/PR8/34	Influenza virus	-	cytopathic effect	MDCK	EC50	100 µg/mL
CCCC(CCC)C(NC(C)=O)C1CC(C(=O)O)CC1N=C(N)N	H1N1 A/TEXAS/36/91	Influenza A virus	-	-	MDCK	EC50	0.11 µM
Nc1nc(Cl)cc(NCC2(CO)COC2)n1	B/GIFU/2/73	Influenza B virus	-	plaque count	MDCK	EC50	>410 µM
CC(N)C12CC3CC(CC(C3)C1)C2	Influenza A/Shanghai/16/89 (H3N2)	Influenza A virus	-	ELISA	MDCK	EC50	0.018 µg/mL
Nc1nc(Cl)c(/C=N/O)c(NCC2(CO)CC(CCc3ccccc3)C2)n1	B/GIFU/2/73	Influenza B virus	-	plaque count	MDCK	EC50	0.13–0.26 µM
CC(NCNc1ccc2ccccc2c1)C(=O)O	B/LEE	Influenza B virus	244 µg/mL	plaque count	CEF	inhibition	46.7%
N=c1c2ncn([C@@H]3O[C@H](CO)[C@@H](O)[C@H]3O)c2ncn1O	TYPE A0/PR8/34	Influenza virus	-	cytopathic effect	MDCK	EC50	3.2 µg/mL
CC(=O)N[C@H]1[C@H]([C@H](O)[C@H](O)CO)OC(C(=O)O)=C[C@@H]1N=C(N)N	LEE/40	Influenza B virus	-	-	MDCK	EC50	0.6 µM
CCC	Sichuan/2/87 (H3)	Influenza A virus	-	-	MDCK	EC50	>500 µM
CC(C)(CO)CNc1cc(Cl)nc(N)n1	B/GIFU/2/73	Influenza B virus	-	plaque count	MDCK	EC50	220 µM
CCOC(=O)c1nc2ccc([N+](=O)[O-])cc2[nH]c1=O	Maryland B	Influenza virus	-	plaque count	BSC-1/HELA	EC50	40 µg/mL
CCCC(CCC)C(NC(C)=O)C1C(N=C(N)N)CC(C(=O)O)C1O	H1N1 A/Bayern/07/95	Influenza A virus	-	-	MDCK	EC50	0.36 µM
CCC(CC)[C@H](NC(C)=O)[C@@H]1[C@H](O)[C@@H](C(=O)O)C[C@H]1N=C(N)N	H1N1 TEXAS/36/91	Influenza A virus	-	plaque count	MDCK	EC50	0.0001 µM
CCC(CC)[C@H](NC(C)=O)[C@@H]1[C@H](O)[C@@H](C(=O)O)C[C@H]1N=C(N)N	H1N1 A/NWS/33	Influenza A virus	-	visual reading	MDCK	EC50	8.9 µM
Nc1nc(Cl)cc(NCC2(CO)CCCCC2)n1	B/GIFU/2/73	Influenza B virus	-	plaque count	MDCK	EC50	150 µM

Again, the opening 3 rows:

smiles | strain or isolate | organism | dose | method | cell line | endpoint | value
Cn1cnc2c(ncn2[C@@H]2O[C@H](CO)[C@@H](O)[C@H]2O)c1=N | TYPE A0/PR8/34 | Influenza virus | - | cytopathic effect | MDCK | EC50 | 100 µg/mL
Nc1ccnc(N)n1 | B/GIFU/2/73 | Influenza B virus | - | plaque count | MDCK | EC50 | >910 µM
N=C1c2ncn([C@@H]3O[C@H](CO)[C@@H](O)[C@H]3O)c2NCN1OCc1ccccc1 | TYPE A0/PR8/34 | Influenza virus | - | cytopathic effect | MDCK | EC50 | 320 µg/mL

An empty or dashed field is not shown. a–b is a range or a potency band. Inhibition is in % at the dose shown (toxicity tests: loss of growth or viability). Lines come from different laboratories, so protocols vary.